Anti-infective test results gathered from many reports (values: NIAID ChemDB through PubChem).

All rows: tests in culture; organism: Mycobacterium tuberculosis

ECn is the concentration giving n% inhibition of infection, replication or growth. Inhibition is in % at the dose shown (toxicity tests: loss of growth or viability). MIC bound comes from a single tested concentration. A number after MIC or MFC names an inhibition level or a share of isolates. Blank or dashed fields: not listed here. Rows are shuffled and stem from different studies.

structure,method,dose,measure,cell line,strain or isolate,mutations,value
NNC(=O)c1ccncc1,-,-,MIC,-,H37Rv,-,≤0.125 µg/mL
CN1C(=O)C2SC(=NNc3ccccc3)SC1C(=O)N2C,BACTEC,12.5 µg/mL,inhibition,-,H37Rv,-,95%
Oc1cc(C(O)CCc2ccc(Cl)cc2)ccc1Oc1ccccc1,resazurin,-,MIC,-,Clinical isolate,INH resistant,4 µg/mL
CC(=O)Nc1ccc(/C=N/NC(N)=S)cc1,-,-,MIC,-,H37Rv,-,0.156 µg/mL
O=C1NC(NNC(=O)c2ccncc2)=N/C1=C\c1ccc(Cl)cc1,-,-,MIC,-,Capreomycin-resistant,-,3.13 µg/mL
O=C(Nc1ccc([N+](=O)[O-])c2c1C(=O)c1ccccc1C2=O)c1ccccc1,BACTEC,-,MIC bound,-,H37Rv,-,>12.5 µg/mL
C=CCN=C(N=Nc1c(O)[nH]c2ccccc12)SCC(=O)c1ccc([N+](=O)[O-])cc1,-,-,MIC,-,H37Rv,-,>12.5 µg/mL
CC(=O)Oc1ccn2nc(C)c(Br)c2c1,resazurin,6.25 µg/mL,inhibition,-,H37Rv,-,15%
NNC(=O)c1ccncc1,-,-,MIC,-,H37R (MTB),-,0.7 µM
CCCCCOc1ccc(NC(=O)OC(C)CN2CCCCC2)cc1,-,-,MIC,-,My 331/88,-,32 µM
CC1COc2c(N3CCN(C)CC3)c(F)cc3c(=O)c(C(=O)O)cn1c23,-,-,MIC,-,H37Rv,-,1 µg/mL
CC1(C)CC(=O)C2=C(C1)N(Nc1ccc(F)cc1)C(N)=C(C#N)C2c1cc2ccccc2nc1Cl,agar,-,MIC,-,H37Rv,-,62 µg/mL
CC1(C)CC[C@]2(C(=O)O)CC[C@]3(C)C(CC[C@@H]4[C@@]5(C)C[C@H](O)CC(C)(C)[C@@H]5CC[C@]43C)[C@@H]2C1,resazurin,-,MIC,-,RIF-R (ATCC 35838),-,25 µg/mL
O=C1C=CC(=O)N1n1c(-c2ccccc2)n[nH]c1=O,BACTEC,-,MIC bound,-,H37Rv,-,>12.5 µg/mL
COc1cc(Cc2cnc(/N=C3\C(=O)N(CN4CCN(c5ccc6c(c5F)c(=O)c(C(=O)O)cn6C5CC5)CC4)c4ccc(C)cc43)nc2N)cc(OC)c1OC,-,-,MIC,-,H37Rv,-,100 µg/mL
C=CCN=C(N=Nc1c(O)[nH]c2ccccc12)SCC(=O)c1ccc(Br)cc1,-,-,MIC,-,H37Rv,-,>12.5 µg/mL
CCCCCCCOc1ccc(NC(=O)OC(C)CN2CCCCC2)cc1,-,-,MIC,-,My 331/88,-,8 µM
CC(=O)Nc1ccc(/C=N/NC(N)=S)cc1F,resazurin,-,MIC90,-,H37Rv,Kanamycin-resistant,<0.1 µg/mL
CCOC(=O)c1cn(Cc2ccc(Cl)cc2)c(CC)c1-c1ccncc1,-,-,MIC,-,CIP103471,-,4 µg/mL
Oc1cc(Cl)ccc1Oc1ccc(Cl)cc1Cl,resazurin,-,MIC,-,H37Rv,-,12.5 µg/mL
O=C(CSc1nc(-c2ccccc2)c(-c2ccccc2)[nH]1)N=Nc1c(O)[nH]c2ccc(Br)cc12,-,-,EC50,-,H37Rv,-,>12 µg/mL
CN(C)N=Nc1ccc(C(=O)N/N=C/c2ccc([N+](=O)[O-])cc2)cc1,BACTEC,12.5 µg/mL,inhibition,-,H37Rv,-,8%
Nc1ccc(C(=O)O)c(O)c1,-,-,MIC,-,H37Rv,-,0.25 µg/mL
CCO.O=C(NCc1ccccc1)Nc1nc(-c2ccccc2)c(-c2ccccc2)nc1C(=O)NCc1ccccc1,BACTEC,-,MIC,-,H37Rv,-,≥12.5 µg/mL
O=C(CCc1ccc(Cl)cc1)c1ccc(Oc2ccccc2)c(O)c1,resazurin,-,MIC,-,H37Rv,-,15 µg/mL
COc1ccc(NC(=O)c2ccccc2N)cc1,-,-,MIC,-,My 331/88,-,500 µM
CC(C)(C)c1cc(C(C)(C)C)c2oc(-c3ccncc3)nc2c1,BACTEC,6.25 µg/mL,inhibition,-,H37Rv,-,100%
CCCCCCCOc1ccccc1NC(=O)OCCN1CCCCC1,-,-,MIC,-,My 331/88,-,32 µM
CCCNCCC(=O)Nc1ccc(C)c(Cl)c1.Cl,BACTEC,-,MIC bound,-,H37Rv,-,>12.5 µg/mL
CCCCCCOc1ccccc1NC(=O)OC(C)CN1CCCCC1,-,-,MIC,-,My 331/88,-,16 µM
Oc1cc(C(O)CCc2ccco2)ccc1Oc1ccccc1,resazurin,-,MIC,-,Clinical isolate,MDR,4 µg/mL
C=CCn1c(-c2ccc(OC)cc2)cs/c1=N\N=C1/C(=O)Nc2ccccc21,-,-,EC50,-,H37Rv,-,<12 µg/mL
Cc1ccc(S(=O)(=O)n2cc(CO)c(-c3ccncc3)c2)cc1,-,-,MIC,-,CIP103471,-,4 µg/mL
O=C1NC(=NCc2ccccc2)N/C1=C\c1ccc(Cl)cc1,resazurin,-,EC50,VERO,H37Rv,-,<12.5 µg/mL
NC(=S)c1nnn(Cc2ccccc2)c1N,resazurin,-,MIC,-,mc4914 InhA overexpressing,-,125 µM
CCOC(=O)c1c[nH]cc1-c1ccncc1CC,-,-,MIC,-,CIP103471,-,250 µg/mL
CN1[C@@H](CC(=O)c2ccccc2)CCC[C@H]1CC(=O)c1ccccc1.Cl,BACTEC,12.8 µg/mL,inhibition,-,H37Rv,-,19%
CC(C)(C)c1cc(C(C)(C)C)c2oc(-c3ccc(Br)cc3)nc2c1,-,-,MIC,-,H37Rv,-,>128 µg/mL
Cc1cc(C2=NOC(c3c(Cl)cccc3Cl)C2)ccc1O,-,-,MIC,-,H37R (MTB),-,1.82 µM
Clc1nc2nc[nH]c2nc1Cl,BACTEC,12.5 µg/mL,inhibition,-,H37Rv,-,4%
CCn1cc(C(=O)O)c(=O)c2c(F)c(N3CCN(CN4C(=O)/C(=N\c5ncc(Cc6cc(OC)c(OC)c(OC)c6)c(N)n5)c5cc(C)ccc54)C(C)C3)c(F)cc21,-,-,MIC,-,H37Rv,-,100 µg/mL
COc1ccc(C2CC(c3ccc(O)c(C)c3)=NO2)cc1,-,-,MIC,-,H37R (MTB),-,>6.25 µM
CC1S/C(=N/N=C2\C(=O)Nc3ccc(Br)cc32)N(c2ccc(Cl)cc2)C1=O,-,12 µg/mL,inhibition,-,H37Rv,-,82%
O=C1NC(Nc2cccc(Cl)c2)=N/C1=C\c1ccccc1Cl,-,-,EC50,-,H37Rv,-,<12.5 µg/mL
CC[C@@H](CO)NCCN[C@@H](CC)CO,agar / absorbance,-,MIC,-,H37Rv,-,3.125 µg/mL
Cc1cc(C2=NOC(c3ccc(N(C)C)cc3)C2)ccc1O,-,-,MIC,-,H37R (MTB),-,>6.25 µM
CCCCCOc1cccc(NC(=O)OC(COCC)CN2CCCCC2)c1,-,-,MIC,-,My 331/88,-,32 µM
C[C@@H]1[C@@H](NC(=O)c2cc3cc(C(=O)O)ncc3[nH]2)C[C@H]2C[C@@H]1C2(C)C,resazurin,-,MIC90,-,H37Rv,-,2.7 µg/mL
O=c1[nH]c2ncnc(N=Nc3ncnc4[nH]c(=O)[nH]c34)c2[nH]1,BACTEC,-,MIC bound,-,H37Rv,-,>12.5 µg/mL
CCCCCOc1ccccc1NC(=O)OCCN1CCCCC1,-,-,MIC,-,My 331/88,-,16 µM
COc1ccc2[nH]c3c(C)c4ccn5c(=O)c6ccccc6cc5c4c(C)c3c2c1,BACTEC,12.5 µg/mL,inhibition,-,H37Rv,-,14%
O=C1NC(NNC(=O)c2ccncc2)=N/C1=C\c1ccccc1Cl,-,-,MBC,-,Rifampicin-resistant,-,1.56 µg/mL
COc1ccc(NN2C(N)=C(C#N)C(c3cc4cc(Cl)ccc4nc3Cl)C3=C2CC(C)(C)CC3=O)cc1,agar,-,MIC,-,H37Rv,-,22 µg/mL
O=C(CCc1ccc(F)cc1)c1ccc(Oc2ccccc2)c(O)c1,resazurin,-,MIC,-,H37Rv,-,10 µg/mL
Nc1ccccc1C(=O)Nc1ccc(Cl)c(Cl)c1,-,-,MIC,-,My 331/88,-,62 µM
NNC(=O)[C@H](Cc1cnc[nH]1)NC(=O)OCc1ccccc1,BACTEC,-,MIC bound,-,H37Rv,-,>12.5 µg/mL
O=C(Nc1cccc(F)c1)c1ccccc1O,-,-,MIC,-,My 331/88,-,31 µM
CN[C@@H]1[C@@H](O)[C@@H](O[C@@H]2[C@@H](O)[C@H](O[C@H]3O[C@H](CN)CC[C@H]3N)[C@@H](N)C[C@H]2N)OC[C@]1(C)O,-,-,MIC,-,H37Rv,-,2 µg/mL
NC[C@H]1O[C@H](O[C@H]2[C@H](O)[C@@H](O[C@H]3O[C@H](CO)[C@@H](O)[C@H](N)[C@H]3O)[C@H](N)C[C@@H]2N)[C@H](O)[C@@H](O)[C@@H]1O,-,-,MIC,-,H37Rv,-,1.5 µg/mL
CCOC(=O)c1cn(Cc2ccc(Cl)cc2)cc1-c1ccncc1,-,-,MIC,-,CIP103471,-,0.5 µg/mL
Cc1ccc(CCC(O)c2ccc(Oc3ccccc3)c(O)c2)cc1,resazurin,-,MIC,-,H37Rv,-,1.56 µg/mL
Cc1ccc(S(=O)(=O)NC(=O)ON2CCCCC2)cc1,BACTEC,12.5 µg/mL,inhibition,-,H37Rv,-,5%
CC(C)(C)c1cc(C(C)(C)C)c2oc(/C=C/c3ccccc3)nc2c1,BACTEC,-,MIC,-,H37Rv,-,3.13 µg/mL
COc1cc(C2CC(c3ccc(O)c(C)c3)=NO2)ccc1O,-,-,MIC,-,INH-resistant M. tuberculosis,-,6.25 µM
CC(C)(C)c1cc(C(C)(C)C)c2oc(-c3cccnc3)nc2c1,BACTEC,6.25 µg/mL,inhibition,-,H37Rv,-,<90%
CCOC(=O)C1C(NC(N)=O)N(Cc2ccccc2)C(=O)N1Cc1ccccc1,BACTEC,12.5 µg/mL,inhibition,-,H37Rv,-,0%
CCCCCCOc1cccc(NC(=O)OC(COCC)CN2CCCCC2)c1,-,-,MIC,-,My 331/88,-,32 µM
CNC(=O)Nc1cccc(C2(C)OCCS2)c1,BACTEC,-,MIC bound,-,H37Rv,-,>12.5 µg/mL
CCOC(=O)c1cn(C)cc1-c1ccc(OC)cc1,-,-,MIC,-,CIP103471,-,16 µg/mL
NC[C@@H]1O[C@H](O[C@H]2[C@@H](O)[C@H](O[C@@H]3[C@@H](O)[C@H](N)C[C@H](N)[C@H]3O[C@H]3O[C@H](CN)[C@@H](O)[C@H](O)[C@H]3N)O[C@@H]2CO)[C@H](N)[C@@H](O)[C@@H]1O,-,-,MIC,-,H37Rv,-,8 µg/mL
CN1C(=O)N(C)C2SC(=NCc3ccccc3)NN2C1=O,resazurin,-,MIC bound,-,H37Rv,-,>6.25 µg/mL
Cc1cc(C2=NOC(c3ccc(Cl)cc3)C2)ccc1O,-,-,MIC,-,INH-resistant M. tuberculosis,-,0.93 µM
Cc1ccc(NC(=O)c2ccccc2N)cc1C,-,-,MIC,-,My 331/88,-,>125 µM
CO[C@H]1/C=C/O[C@@]2(C)Oc3c(C)c(O)c4c(O)c(c(/C=N/N5CCN(C)CC5)c(O)c4c3C2=O)NC(=O)/C(C)=C\C=C\[C@H](C)[C@H](O)[C@@H](C)[C@@H](O)[C@@H](C)[C@H](OC(C)=O)[C@@H]1C,resazurin,-,MIC,-,Clinical isolate,INH resistant,0.007 µg/mL
COc1ccc2nc(Cl)c(C3C(C#N)=C(N)N(Nc4ccccc4)C4=C3C(=O)CC(C)(C)C4)cc2c1,agar,-,MIC,-,H37Rv,-,80 µg/mL
Nc1cc2nc3ccccc3sc-2cc1=O,BACTEC,12.5 µg/mL,inhibition,-,H37Rv,-,99%
COc1cc(C2CC(c3ccc(O)c(C)c3)=NO2)cc(OC)c1OC,-,-,MIC,-,H37R (MTB),-,>6.25 µM
COC1=CC2(C=CC1=O)CCC(=O)O2,BACTEC,12.5 µg/mL,inhibition,-,H37Rv,-,0%
CN[C@@H]1[C@H](O)[C@H](NC)[C@H]2O[C@@]3(O)C(=O)C[C@@H](C)O[C@H]3O[C@@H]2[C@H]1O,-,-,MIC,-,H37Rv,-,16 µg/mL
CO[C@@]12[C@H](COC(N)=O)C3=C(C(=O)C(C)=C(N4CCCC4)C3=O)N1C[C@@H]1N[C@@H]12,BACTEC,-,MIC,VERO,H37Rv,-,1.6 µg/mL
CCCCCCOc1cccc(NC(=O)OC(C)CN2CCCCC2)c1,-,-,MIC,-,My 331/88,-,8 µM
COc1cc(Cc2cnc(/N=C3\C(=O)N(CN4CCN(c5ccc([N+](=O)[O-])cc5)CC4)c4ccc(C)cc43)nc2N)cc(OC)c1OC,-,-,MIC,-,H37Rv,-,30 µg/mL
Cc1ccc(NN2C(N)=C(C#N)C(c3cc4ccccc4nc3Cl)C3=C2CC(C)(C)CC3=O)cc1,agar,-,MIC,-,H37Rv,-,8 µg/mL
Cc1nc2c(=O)n(C)c(=O)n(C)c2nc1CCC(=O)O,BACTEC,12.5 µg/mL,inhibition,-,H37Rv,-,-29%
COc1cc(Cc2cnc(/N=C3\C(=O)N(CN4CCN(c5cccc(C(F)(F)F)c5)CC4)c4ccc(C)cc43)nc2N)cc(OC)c1OC,-,-,MIC,-,H37Rv,-,21 µg/mL

Repeating the first 8 entries:

structure | method | dose | measure | cell line | strain or isolate | mutations | value
NNC(=O)c1ccncc1 | - | - | MIC | - | H37Rv | - | ≤0.125 µg/mL
CN1C(=O)C2SC(=NNc3ccccc3)SC1C(=O)N2C | BACTEC | 12.5 µg/mL | inhibition | - | H37Rv | - | 95%
Oc1cc(C(O)CCc2ccc(Cl)cc2)ccc1Oc1ccccc1 | resazurin | - | MIC | - | Clinical isolate | INH resistant | 4 µg/mL
CC(=O)Nc1ccc(/C=N/NC(N)=S)cc1 | - | - | MIC | - | H37Rv | - | 0.156 µg/mL
O=C1NC(NNC(=O)c2ccncc2)=N/C1=C\c1ccc(Cl)cc1 | - | - | MIC | - | Capreomycin-resistant | - | 3.13 µg/mL
O=C(Nc1ccc([N+](=O)[O-])c2c1C(=O)c1ccccc1C2=O)c1ccccc1 | BACTEC | - | MIC bound | - | H37Rv | - | >12.5 µg/mL
C=CCN=C(N=Nc1c(O)[nH]c2ccccc12)SCC(=O)c1ccc([N+](=O)[O-])cc1 | - | - | MIC | - | H37Rv | - | >12.5 µg/mL
CC(=O)Oc1ccn2nc(C)c(Br)c2c1 | resazurin | 6.25 µg/mL | inhibition | - | H37Rv | - | 15%